Compound potency records, mixed from different reports. Data source: NIAID ChemDB in PubChem.

Shared fields: tests on isolated targets; organism: HIV-1; target: Protease; measure: Ki

Lines come from different laboratories, so protocols vary. An empty or dashed field is not shown. Two numbers with a dash give a range or band.

compound | strain or isolate | changes | read by | conditions | value
CC(C)CC[C@H](NC(=O)CCCCCCCCCCCCCCC(=O)N[C@@H](CC(N)=O)C(=O)N[C@@H](Cc1ccccc1)C(=O)O)C(=O)N[C@@H](Cc1ccccc1)C(N)=O |  |  | HPLC |  | 0.502 µM
CC(C)(O)c1ccc(CN2C(=O)N(Cc3ccc(C(C)(C)O)cc3)[C@H](Cc3ccccc3)[C@H](O)[C@@H](O)[C@H]2Cc2ccccc2)cc1 |  |  | fluorescence |  | 0.0022 µM
CC(C)[C@H](NC(=O)N(C)Cc1ccccn1)C(=O)N[C@@H](Cc1ccccc1)[C@H](O)[C@@H](O)[C@H](Cc1ccccc1)NC(=O)[C@@H](NC(=O)N(C)Cc1ccccn1)C(C)C |  |  | fluorescence |  | 0.000077 µM
CS(=O)(=O)Nc1cccc(C(c2c(O)c3c(oc2=O)CCCCCC3)C2CC2)c1 |  |  |  |  | 0.011 µM
CC(C)(O)c1cccc(CN2C(=O)N(Cc3cccc(C(C)(C)O)c3)[C@H](Cc3ccccc3)[C@H](O)[C@@H](O)[C@H]2Cc2ccccc2)c1 |  |  | fluorescence |  | 0.000067 µM
CC(C)[C@H](NC(=O)OCc1ccccc1)C(=O)NN(Cc1ccc(Br)cc1)C[C@@](O)(Cc1ccccc1)C(=O)N[C@H]1c2ccccc2C[C@H]1O |  |  | fluorescence |  | 0.011–0.05 µM
CC(C)(C)[C@H](NC(=O)OCCc1nc2ccccc2[nH]1)C(=O)N[C@@H](Cc1ccccc1)[C@H](O)[C@@H](CO)[C@H](Cc1ccccc1)NC(=O)[C@@H](NC(=O)OCCc1nc2ccccc2[nH]1)C(C)(C)C |  |  |  |  | 0.027 µM
Cc1cc(SC2=C(O)CC(CCc3ccccc3)(c3ccccc3)OC2=O)c(C(C)(C)C)cc1CO |  |  |  | pH 6.2 | 0.00009 µM
O=C1N(Cc2cccc(-c3cn[nH]c3)c2)[C@H](Cc2ccccc2)[C@H](O)[C@@H](O)[C@@H](Cc2ccccc2)N1Cc1cccc(-c2cn[nH]c2)c1 | RF |  |  |  | 0.00062 µM
CC(=O)N[C@@H](Cc1ccccc1)C(=O)N[C@@H](CO)C(=O)N[C@@H](Cc1ccc(O)cc1)C(=O)N[C@@H](CCC(=O)O)C(=O)N[C@@H](CC(C)C)C(=O)O |  |  | fluorescence |  | 0.9 µM
CC(C)[C@H](NC(=O)N(C)Cc1ccccn1)C(=O)N[C@@H](Cc1ccccc1)[C@@H](O)[C@H](O)[C@H](Cc1ccccc1)NC(=O)[C@@H](NC(=O)N(C)Cc1ccccn1)C(C)C |  |  | fluorescence |  | 0.001 µM
CC(C)CCC(O)C1(Cc2ccccc2)CS(=O)CC(CO)(Cc2ccccc2)C1O |  |  |  |  | <25 µM
CC[C@H](C)[C@H](NC(C)=O)C(=O)N[C@@H](CO)C(=O)N[C@@H](Cc1ccc2ccccc2c1)C(=O)N[C@@H](CCC(=O)O)C(=O)N[C@@H](CC(C)C)C(=O)O |  |  | fluorescence |  | 0.26 µM
CC(C)(C)[C@H](NC(=O)OCc1ccccc1)C(=O)N[C@@H](Cc1ccccc1)[C@H](O)[C@@H](CO)[C@H](Cc1ccccc1)NC(=O)[C@@H](NC(=O)OCc1ccccc1)C(C)(C)C |  |  |  |  | >1.25 µM
Cc1ccccc1CNC(=O)[C@H]1N(C(=O)[C@@H](O)[C@H](Cc2ccccc2)NC(=O)c2cccc(O)c2C)CSC1(C)C |  |  |  |  | 0.000035 µM
CC(C)(C)[C@H](NC(=O)c1nc2ccccc2[nH]1)C(=O)N[C@@H](Cc1ccccc1)[C@H](O)[C@@H](CO)[C@H](Cc1ccccc1)NC(=O)[C@@H](NC(=O)c1nc2ccccc2[nH]1)C(C)(C)C |  |  |  |  | 3.7 µM
Cc1nc(COc2ccc(C[C@H](NC(=O)O[C@H]3CO[C@H]4OCC[C@H]43)[C@H](O)CN(CC(C)C)S(=O)(=O)c3ccc4c(c3)OCO4)cc2)cs1 | HXB2 |  | absorbance |  | 0.000004 µM
CC[C@H](C)[C@H](NC(=O)[C@@H](C[C@H](O)[C@H](CC1CCCCC1)NC(=O)CC(C)(C)C)C(C)C)C(=O)NCc1ccccn1 |  |  |  |  | 0.07 µM
O=S1(=O)N(Cc2cccc(-c3cccs3)c2)[C@H](COc2ccccc2)[C@H](O)[C@@H](O)[C@@H](COc2ccccc2)N1Cc1cccc(-c2cccs2)c1 |  |  |  |  | 2.4 µM
CC(C)[C@H](NC(=O)N(C)Cc1ccccn1)C(=O)N[C@@H](Cc1ccccc1)[C@@H](O)[C@H](O)[C@H](Cc1ccccc1)NC(=O)[C@@H](NC(=O)N(C)Cc1ccccn1)C(C)C |  |  | fluorescence |  | 0.001 µM
O=C1N[C@H](Cc2ccccc2)[C@H](O)[C@@H](O)[C@@H](Cc2ccccc2)N1Cc1cccc(-c2ccn[nH]2)c1 | RF |  |  |  | 0.00026 µM
O=c1oc2c(c(O)c1C(c1cccc(NC(=S)Cc3ccccc3)c1)C1CC1)CCCCCC2 |  |  | substrate cleavage |  | 0.32 µM
CCC(C)[C@H](NC(=O)CCCCCCCCCCCCCCC(=O)N[C@@H](CC(N)=O)C(=O)N[C@@H](Cc1ccccc1)C(=O)O)C(=O)N[C@@H](Cc1ccc(-c2ccccc2)cc1)C(N)=O |  |  | HPLC |  | 0.261 µM
COC(=O)N[C@H](C(=O)NCCCC[C@@H](CO)N(CC(C)C)S(=O)(=O)c1ccc(N)cc1)C(c1ccccc1)c1ccccc1 |  |  | HPLC |  | 0.00004 µM
CC(C)(C)[C@H](NC(=O)OCc1nc2ccccc2[nH]1)C(=O)N[C@@H](Cc1ccccc1)[C@H](O)[C@@H](CO)[C@H](Cc1ccccc1)NC(=O)[C@@H](NC(=O)OCc1nc2ccccc2[nH]1)C(C)(C)C |  |  |  |  | 0.34 µM
COC(=O)N[C@@H]1CO[C@@H]2C[C@H](OC(=O)N[C@@H](Cc3ccccc3)[C@H](O)CN(CC(C)C)S(=O)(=O)c3ccc(OC)cc3)C[C@H]12 |  |  | substrate cleavage / fluorescence |  | 0.0395 µM
COC(=O)[C@@H](NC(=O)[C@@H](NC(=O)CC[C@H](O)[C@H](Cc1ccc(O)cc1)NC(=O)[C@H](C)NC(=O)[C@H](C)NC(=O)[C@H](CO)NC(=O)OC(C)(C)C)C(C)C)C(C)C |  |  |  |  | 0.18 µM
CC[C@H](C)[C@H](NC(C)=O)C(=O)N[C@@H](CO)C(=O)N[C@H](C(=O)N[C@@H](CCC(=O)O)C(=O)N[C@@H](CC(C)C)C(=O)O)c1ccc(OC(=O)c2ccccc2)cc1 |  |  | fluorescence |  | 0.6 µM
CC(C)[C@H](NC(=O)OCc1ccccc1)C(=O)N[C@@H](Cc1ccccc1)C(O)[C@H](Cc1ccccc1)NC(=O)[C@@H](NC(=O)OCc1ccccc1)C(C)C |  |  | HPLC |  | 0.01 µM
CNC(=O)CN1[C@H](COc2ccccc2)[C@H](O)[C@@H](O)[C@@H](COc2ccccc2)N(CC(=O)NC)S1(=O)=O |  | PR-G48V L90M |  |  | 24 µM
O[C@@H]1[C@@H](O)[C@@H](Cc2ccccc2)N(Cc2ccccc2)C(=NOCc2ccccc2)N(Cc2ccccc2)[C@@H]1Cc1ccccc1 |  |  |  |  | 3 µM
O=Cc1cccc(CN2C(=O)N(Cc3cccc(C=O)c3)[C@H](Cc3ccccc3)[C@H](O)[C@@H](O)[C@H]2Cc2ccccc2)c1 | RF |  | fluorescence |  | 0.00044 µM
Cc1cccc(C)c1OCC(=O)N[C@@H](Cc1ccccc1)[C@H](O)C(=O)N1CSC(C)(C)[C@H]1C(=O)NC(C)(C)C | IIIB |  |  |  | 0.0217 µM
CC(C)[C@H](NC(=O)N(C)Cc1ccccn1)C(=O)N[C@@H](Cc1ccccc1)[C@H](O)[C@H](O)[C@H](Cc1ccccc1)NC(=O)[C@@H](NC(=O)N(C)Cc1ccccn1)C(C)C |  | PR-R8Q | fluorescence |  | 0.0027 µM
C/C(=N\O)c1cccc(CN2C(=O)N(Cc3cccc(/C(C)=N/O)c3)[C@H](Cc3ccccc3)[C@H](O)[C@@H](O)[C@H]2Cc2ccccc2)c1 | RF |  | fluorescence |  | 0.000018 µM
CC(C)C[C@H](NC(=O)[C@H](CCC(=O)O)NC(=O)[C@H](Cc1ccc(O)cc1)NC(=O)[C@H](CO)NC(=O)[C@@H](N)Cc1ccccc1)C(=O)O |  |  | fluorescence |  | 0.6 µM
COC(=O)c1ccc(CN2C(=O)N(Cc3ccc(C(=O)OC)cc3)[C@H](COc3ccccc3)[C@H](O)[C@@H](O)[C@H]2COc2ccccc2)cc1 |  |  | absorbance |  | 0.0092 µM
O=S1(=O)N(Cc2ccc(-c3cccs3)cc2)[C@H](COc2ccccc2)[C@H](O)[C@@H](O)[C@@H](COc2ccccc2)N1Cc1ccc(-c2cccs2)cc1 |  | PR-G48V L90M |  |  | 18 µM
CC(C)CN(C[C@@H](O)[C@H](Cc1ccccc1)NC(=O)O[C@@]1(C)CO[C@@]2(C)OCC[C@]21C)S(=O)(=O)c1ccc(NC(=O)CNC(=O)OC(C)(C)C)cc1 |  |  | substrate cleavage / fluorescence |  | 0.00031 µM
COC(=O)N[C@H](C(=O)NCCCC[C@@H](CO)N(CC(C)C)S(=O)(=O)c1ccc2c(c1)OCO2)C(c1ccccc1)c1ccccc1 | NL4-3 |  | fluorescence |  | 0.0016 µM
O=C1N(Cc2ccc(O)cc2)[C@H](Cc2ccccc2)[C@H](O)[C@@H](O)[C@@H](Cc2ccccc2)N1Cc1cccc(-c2ccn[nH]2)c1 | RF |  | fluorescence |  | 0.000021 µM
CC(C)CN(C[C@@H](O)[C@H](Cc1ccccc1)NC(=O)[C@H](CC(N)=O)NC(=O)c1ccc2ccccc2n1)C(=O)NC(C)(C)C |  |  | fluorescence |  | 0.003 µM
C/C(=N\O)c1cccc(CN2[C@H](COc3ccccc3)[C@H](O)[C@@H](O)[C@@H](COc3ccccc3)N(Cc3cccc(/C(C)=N/O)c3)S2(=O)=O)c1 |  | PR-I84V |  |  | 0.78 µM
O=C(NC1CCc2ccccc21)[C@H](OCc1cccc(F)c1)[C@H](O)[C@@H](O)[C@@H](OCc1cccc(F)c1)C(=O)N[C@H]1CCc2ccccc21 |  |  |  |  | 0.05 µM
CC(C)(C)NC(=O)[C@H]1N(C(=O)[C@@H](O)[C@H](Cc2ccccc2)NC(=O)[C@H](CC(N)=O)NC(=O)COc2cccc3ccccc23)CSC1(C)C |  |  |  |  | 0.0000068 µM
O=S1(=O)N(Cc2ccc(CO)cc2)[C@H](COc2ccccc2)[C@H](O)[C@@H](O)[C@@H](COc2ccccc2)N1Cc1ccc(CO)cc1 |  | PR-V82A |  |  | 0.0025 µM
O=C1N(Cc2cccnc2)[C@H](Cc2ccccc2)[C@H](O)[C@@H](O)[C@@H](Cc2ccccc2)N1Cc1cccc(-c2ccn[nH]2)c1 | RF |  | fluorescence |  | 0.00017 µM

3 of the rows above, restated:

compound	strain or isolate	changes	read by	conditions	value
CC(C)CN(C[C@@H](O)[C@H](Cc1ccccc1)NC(=O)O[C@@]1(C)CO[C@@]2(C)OCC[C@]21C)S(=O)(=O)c1ccc(NC(=O)CNC(=O)OC(C)(C)C)cc1			substrate cleavage / fluorescence		0.00031 µM
CC(C)[C@H](NC(=O)N(C)Cc1ccccn1)C(=O)N[C@@H](Cc1ccccc1)[C@@H](O)[C@H](O)[C@H](Cc1ccccc1)NC(=O)[C@@H](NC(=O)N(C)Cc1ccccn1)C(C)C			fluorescence		0.001 µM
O=C1N(Cc2cccc(-c3cn[nH]c3)c2)[C@H](Cc2ccccc2)[C@H](O)[C@@H](O)[C@@H](Cc2ccccc2)N1Cc1cccc(-c2cn[nH]c2)c1	RF				0.00062 µM